Results of unrelated studies side by side (data: NIAID ChemDB).

Shared fields: toxicity to cultured cells; cell line: CEM; endpoint: CC50

An empty or dashed field is not shown. Neighbouring rows are from separate reports. CCn: concentration that lowers growth or viability of the cells by n%.

| compound | method | value |
|---|---|---|
| CC(=O)c1ccc(C)cc1NC(C(N)=O)c1c(Cl)cccc1Cl | - | >500 µM |
| Nc1ccn([C@H]2CC[C@@H](CCP(=O)(O)O)O2)c(=O)n1 | - | >200 µM |
| CC(C)OC(=O)c1cc(NC(=S)c2ccco2)ccc1Cl | - | 19 µM |
| O=C1NC(=O)C(CSCc2ccccc2)(CSCc2ccccc2)N1 | - | >100 µM |
| CSS[C@H]1C[C@H](n2cc(C)c(=O)[nH]c2=O)O[C@@H]1CO | MTT | 155 µM |
| CC(=O)Oc1ccc(COP(=O)(OCc2ccc(OC(C)=O)cc2)OC[C@@H]2C=C[C@H](n3cc(C)c(=O)[nH]c3=O)O2)cc1 | - | 58 µM |
| COc1ccc(CSCC2(CSCc3ccc(OC)cc3)NC(=O)NC2=O)cc1 | - | >6 µM |
| CC(C)Oc1ccc(C2(C#N)CCC(=O)N2c2ccccc2)cc1 | absorbance | >100 µM |
| CC(C)OC(=O)c1cc(NC(=S)c2ccccc2N)ccc1Cl | - | 13 µM |
| Cc1cn([C@H]2C=C[C@@H](CO)O2)c(=O)[nH]c1=O | - | 80 µM |
| COc1ccc(S(=O)(=O)N(CC(C)C)C[C@@H](O)[C@H](Cc2ccccc2)NC(=O)[C@H](C)CS(C)(=O)=O)cc1 | - | >1000 µM |
| O=C1NC(=O)C(CSCC2CCCCC2)(CSCC2CCCCC2)N1 | - | >8 µM |
| Nc1ncnc2c1ccn2CCOCP(=O)(O)O | - | >2.5 µg/mL |
| O=C(Nc1ccccc1)c1cc(S(=O)(=O)N2CCNNC2=O)c(S)cc1Cl | - | 197 µM |
| Nc1nc2c(ncn2[C@H]2CC[C@@H](CO)S2)c(=O)[nH]1 | - | >100 µg/mL |
| Cc1ccc(N2C(=O)CCC2(CN)c2ccccc2OCc2ccccc2)cc1 | absorbance | 47.9 µM |
| CCCCCC(NC(=O)c1ccccc1SSc1ccccc1C(=O)NC(CCCCC)C(=O)O)C(=O)O | - | 62.7 µM |
| Cc1cn([C@H]2CC[C@@H](CCP(=O)(O)O)O2)c(=O)[nH]c1=O | - | >200 µM |
| CC(C)CCCCCOP(=O)(COCCn1cnc2c(Cl)nc(N)nc21)OCCCCCC(C)C | - | >4 µg/mL |
| O=C(O)CC[C@H](CC1CCCCC1)NC(=O)c1ccccc1SSc1ccccc1C(=O)N[C@H](CCC(=O)O)CC1CCCCC1 | - | 8.5 µM |
| Nc1ccn([C@H]2CC[C@@H](CO)O2)c(=O)n1 | - | >5.3 µg/mL |
| CC(=O)Nc1ccc(S(=O)(=O)N(CC(C)C)C[C@@H](O)[C@H](Cc2ccccc2)NC(=O)[C@H](C)CS(C)(=O)=O)cc1 | - | 860 µM |
| C/C=C/COc1cc(NC(=S)c2ccn(C)c2C)ccc1Cl | - | 12 µM |
| CC(C)CCCCCOP(=O)(COCCn1cnc2c(N)nc(N)nc21)OCCCCCC(C)C | - | >4 µg/mL |
| CCCC[C@@H](CC(=O)O)NC(=O)c1ccccc1SSc1ccccc1C(=O)N[C@@H](CCCC)CC(=O)O | - | >100 µM |
| NCC1(c2ccccc2)CCC(=O)N1Cc1ccccc1 | absorbance | >100 µM |
| Cc1occc1C(=S)Nc1ccc(Cl)c(OC(=O)OC(C)C)c1 | - | 75 µM |
| CCCCN(C[C@@H](O)[C@H](Cc1ccccc1)NC(=O)[C@H](C)CS(C)(=O)=O)S(=O)(=O)c1ccc(OC)cc1 | - | >1000 µM |
| COc1ccc(C(=O)N2CCCC2(C#N)c2ccccc2)cc1[N+](=O)[O-] | absorbance | >100 µM |
| Cc1ccsc1C(=O)Nc1ccc(Cl)c(C(=O)OC2CCCCC2)c1 | - | 17 µM |
| Nc1nc2c(ncn2CCOCP(=O)(O)O)c(=O)[nH]1 | - | >0.03 µg/mL |
| S=C1NC(=S)C(CSCc2ccccc2)(CSCc2ccccc2)N1 | - | >16 µM |
| NCC1(c2ccc(OCc3ccccc3)cc2)CCC(=O)N1Cc1ccccc1 | absorbance | 23.6 µM |
| CCCOCN1c2ccccc2C(=O)NS1(=O)=O | - | 120 µg/mL |
| CC(CC(=O)O)NC(=O)c1ccccc1SSc1ccccc1C(=O)NC(C)CC(=O)O | - | 59.5 µM |
| Nc1ccn(CC2(CO)CC2CO)c(=O)n1 | - | >100 µg/mL |
| Cc1cn([C@H]2C[C@H](N=[N+]=[N-])[C@@H](CO)S2)c(=O)[nH]c1=O | - | >100 µg/mL |
| COc1ccccc1C(=S)Nc1ccc(Cl)c(C(=O)OC(C)C)c1 | - | 14 µM |
| NC(=O)CCNC(=O)c1ccccc1SCc1ccc(OP(=O)(O)O)cc1 | XTT | >50 µM |
| Nc1nc(Cl)c2ncn(CCOCP(=O)(O)O)c2n1 | - | >0.16 µg/mL |
| O=C(Nc1ccc(Cl)c(C(=O)OC2CCCCC2)c1)c1ccccc1F | - | 84 µM |
| O=C1c2c(O)cc(O)cc2OC12c1c(cc(O)c3c1O[C@H](c1ccc(O)cc1)[C@@H](O)C3)O[C@@H]2c1ccc(O)cc1 | - | >50 µM |
| Cc1ccc(N2C(=O)CCC2(CN)c2ccccc2)cc1 | absorbance | 53.6 µM |
| O=c1[nH]cnc2c1ncn2CC1(CO)CC1CO | - | >100 µg/mL |
| C=CCOC(=O)[C@H](CC(C)C)NC(=O)c1ccccc1SSc1ccccc1C(=O)N[C@@H](CC(C)C)C(=O)OCC=C | - | >100 µM |
| N#CC1(c2ccc(OCc3ccccc3)cc2)CCC(=O)N1Cc1ccccc1 | absorbance | 7 µM |
| CC(C)OC(=O)c1cc(NC(=S)c2ccsc2)ccc1Cl | - | 17 µM |
| Nc1ccn([C@@H]2O[C@H](CO)[C@@H](O)[C@H]2S)c(=O)n1 | MTT | 305 µM |
| Cc1ccsc1C(=S)Nc1ccc(Cl)c(C(=O)OC(C)C)c1 | - | 45 µM |
| Cc1ccc(NC(=O)c2cc(S(=O)(=O)N3CCNNC3=O)c(S)cc2Cl)cc1 | - | >200 µM |

Repeating the final 5 entries:

compound	method	value
N#CC1(c2ccc(OCc3ccccc3)cc2)CCC(=O)N1Cc1ccccc1	absorbance	7 µM
CC(C)OC(=O)c1cc(NC(=S)c2ccsc2)ccc1Cl	-	17 µM
Nc1ccn([C@@H]2O[C@H](CO)[C@@H](O)[C@H]2S)c(=O)n1	MTT	305 µM
Cc1ccsc1C(=S)Nc1ccc(Cl)c(C(=O)OC(C)C)c1	-	45 µM
Cc1ccc(NC(=O)c2cc(S(=O)(=O)N3CCNNC3=O)c(S)cc2Cl)cc1	-	>200 µM